# Patent US7485619B2, “Antimicrobial agent” (priority 2005, dated 2009)
# No end group written: not given here.
# Assay: Antigenic activity of mucocidin peptides
row,Substance,antigenic activity
1,ATSSVSSRVLNRSLQVKVVKITN [Peptide 23-mer-C],no antigenic activity
2,EYIYNSACSVLSATSSVSSRVLNRSLQVKVVKITN [Peptide 35-mer],showed antigenic activity
3,isolated native salivary mucocidin: glycosylated native mucocidin isolated from human parotid saliva by ion exchange and Superose 12 chromatography (MHDFWVLWVLLEYIYNSACSVLSATSSVSSRVLNRSLQVKVVKITN),showed antigenic activity
